Compound potency records, mixed from different reports. Data source: NIAID ChemDB in PubChem.

Common to all: tests in culture; species: Candida albicans; read by: agar diffusion; endpoint: MIC

Lines come from different laboratories, so protocols vary.

Clc1ccc(-c2cn3nc(Cl)sc3n2)cc1 ; value: 50 µg/mL
CCOC(=O)C(C#N)C(c1cc2cccc(CC)c2n2nnnc12)P(=O)(OCC)OCC ; strain or isolate: MTCC 277 ; value: 10 µg/mL
O=c1[nH][nH]c2c1C(c1ccc(F)cc1)CC(Cc1ccc3ccccc3c1)=C2 ; value: 50 µg/mL
O=[N+]([O-])c1nn2cc(-c3ccc(F)cc3)nc2s1 ; value: 50 µg/mL
CC(C)Cc1ccc(CC2=Cc3[nH][nH]c(=O)c3C(c3ccccc3)C2)cc1 ; value: 50 µg/mL
CCOC(=O)C(C#N)C(c1cc2cccc(C)c2n2nnnc12)P(=O)(OCC)OCC ; strain or isolate: MTCC 277 ; value: 15 µg/mL
CC(C)Cc1ccc(CC2=Cc3[nH][nH]c(=O)c3C(c3ccc(F)cc3)C2)cc1 ; value: 12.5 µg/mL
Nc1ccc2c(O)cc(S(=O)(=O)O)cc2c1 ; value: 100 µg/mL
C=C1C(=O)O[C@@H]2/C=C(\C)CC/C=C(\C)CC[C@@H]12 ; strain or isolate: MTCC 227 ; value: >250 µg/mL
O=S(=O)(O)c1cc(S(=O)(=O)O)c2cc(O)ccc2c1 ; value: 200 µg/mL
COc1ccc(C2NC(=O)Nc3[nH]c(=O)sc32)cc1OC ; strain or isolate: ATCC 10231 ; value: 312.5 µg/mL
Nc1cccc2c(S(=O)(=O)O)cccc12 ; value: 100 µg/mL
O=[N+]([O-])c1nn2cc(-c3ccc(Cl)cc3)nc2s1 ; value: >75 µg/mL
Nc1ccc2cc(S(=O)(=O)O)cc(O)c2c1 ; value: 300 µg/mL
O=c1[nH][nH]c2c1C(c1ccc(Br)cc1)CC(Cc1ccc3ccccc3c1)=C2 ; value: 25 µg/mL

A second listing of 2 rows from above:

smiles	strain or isolate	value
O=[N+]([O-])c1nn2cc(-c3ccc(F)cc3)nc2s1	-	50 µg/mL
Clc1ccc(-c2cn3nc(Cl)sc3n2)cc1	-	50 µg/mL

Blank or dashed fields: not listed here.